Test results from ChEMBL document CHEMBL1759992, “Antidotes to anthrax lethal factor intoxication. Part 2: structural modifications leading to improved in vivo efficacy” (Bioorg Med Chem Lett, 2011).

system: Rattus norvegicus; assay: Inhibition of lethal factor-induced toxicity in Fischer 344 rat assessed as increase in median survival time at 5 mg/kg, iv followed by administration of 10 ug lethal toxin after 20 to 30 mins of compound dosing relative to control

| SMILES | fold change (FC) |
| --- | --- |
| O=C(NO)[C@@H](CCCCNCc1ccc(F)cc1)Nc1ccc(F)c(Cl)c1 | 1.4 |
| Cc1cc(N[C@H](CCCCNCCCc2ccc(F)cc2)C(=O)NO)cc(C)c1F | 2 |
| CO[C@H](C[C@H](CCCCCNCc1ccc(F)cc1)C(=O)NO)c1ccc(F)cc1 | 1.4 |
| Cc1cc(O[C@H](CCCCNCc2ccc(Cl)cc2)C(=O)NO)cc(C)c1F | 1.3 |
| CO[C@H](C[C@H](CCCCCNCCc1ccc(F)cc1)C(=O)NO)c1ccc(F)cc1 | 1.3 |
| Cc1cc(CNCCCC[C@@H](Cc2cc(C)c(F)c(C)c2)C(=O)NO)ccc1F | 7.8 |
| Cc1cc(CNCCCC[C@@H](Nc2ccc(F)c(C)c2)C(=O)NO)ccc1F | 5.8 |
| Cc1cc(CNCCCC[C@@H](Oc2ccc(F)c(C)c2)C(=O)NO)ccc1F | 1.3 |
| Cc1cc(O[C@H](CCCCCNCCc2ccc(F)cc2)C(=O)NO)cc(C)c1F | 1.1 |
| CO[C@H](C[C@H](CCCCNCc1ccc(F)c(C)c1)C(=O)NO)c1ccc(F)cc1 | 5 |
| Cc1cc(C[C@H](CCCCNCc2ccc(F)cc2)C(=O)NO)cc(C)c1F | 13.6 |
| Cc1cc(N[C@H](CCCCNCc2ccc(F)cc2)C(=O)NO)cc(C)c1F | 17 |
| Cc1cc(O[C@H](CCCCNCc2ccc(F)cc2)C(=O)NO)cc(C)c1F | 2.9 |
| Cc1cc(O[C@H](CCCCCNCc2ccc(F)cc2)C(=O)NO)cc(C)c1F | 1.4 |

system: Rattus norvegicus; assay: Inhibition of lethal factor-induced toxicity in Fischer 344 rat assessed as increase in median survival time at […], iv followed by administration of 10 ug lethal toxin after 20 to 30 mins of compound dosing relative to control

| SMILES | FC |
| --- | --- |
| CO[C@H](C[C@H](CCCCNCc1ccc(F)cc1)C(=O)NO)c1ccc(F)cc1 | 5 |
| Cc1cc(CNCCCC[C@@H](Nc2cc(C)c(F)c(C)c2)C(=O)NO)ccc1F | 4.2 |
